Taken from: PubChem BioAssay AID504761 (Drosophila RNAi Screening Center, 2011)
The screen tested about 22,000 reagents; shown is a random part of those that have a named target and a result. Of all reagents, 116 (0.52%) are marked active. 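Calls depend on retest data that are not deposited; infection was ranked per plate without normalising between plates; the unit of the infection score is not given.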 Raw values vary from plate to plate and are shown uncorrected. A number with no mark means an inactive call. A plus sign joins genes that one reagent is predicted to hit. Not all columns of the deposit are shown. Not stated in the record: the amount of reagent, the time to read-out.

Purpose: 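Insect host genes that dengue virus relies on to spread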 (primary screen)
Cells: D.Mel-2 cells from Drosophila
Reagent: long dsRNA against Drosophila genes
Challenge: infection with dengue virus type 2; dose and infection time not stated
Read-out: 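Per well on two replicate plates, imaging gave the percent of cells positive for viral envelope protein, ranked by infection, and a nuclear count of cells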
Reading the numbers: infection score: higher = more virus-infected cells; cell count: higher = more cells in the well
Call rule: 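Low infection ranks in the two replicates (chance level up to 0.065) followed by a retest with a 1.5-fold or larger significant decrease, p below 0.05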
Calls: active = confirmed: knock-down lowers infection; inactive = not picked or not confirmed

With knock-down of primo-2 + primo-1 [DRSC16511], the screen gave infection score, replicate 1 = 1.42; cell count, replicate 1 = 6062.
After knock-down of primo-2 + primo-1 [DRSC27823], the record shows infection score, replicate 1 = 4.81; cell count, replicate 1 = 6605.
Against Ccp84Ad [DRSC12589], the values are infection score, replicate 1 = 2.74; cell count, replicate 1 = 6267.
Silencing of Ccp84Ad [DRSC22854] resulted in: infection score, replicate 1 = 0.91; cell count, replicate 1 = 5520.
For CG44837 [DRSC10133], the entry reads infection score, replicate 1 = 2.79; cell count, replicate 1 = 5521.
Knock-down of CG44837 [DRSC10558] resulted in: infection score, replicate 1 = 1.69; cell count, replicate 1 = 6172.
CG44837 [DRSC25062] gave infection score, replicate 1 = 3.42; cell count, replicate 1 = 6089.
For CG12477 [DRSC09886], the entry reads infection score, replicate 1 = 3.2; cell count, replicate 1 = 6720.
Silencing of CG12477 [DRSC24078] came out at: infection score, replicate 1 = 9.77; cell count, replicate 1 = 4966.
Depletion of AspRS (Aspartyl-tRNA synthetase) [DRSC05914] came out at: infection score, replicate 1 = 4.35; cell count, replicate 1 = 6119.
CG5114 [DRSC10482] showed infection score, replicate 1 = 9.38; cell count, replicate 1 = 6289.
Against zda (zonda) [DRSC06936], the entry reads infection score, replicate 1 = 6.07; cell count, replicate 1 = 6769.
Silencing of zda (zonda) [DRSC25289] came out at: infection score, replicate 1 = 2.09; cell count, replicate 1 = 6807.

Quoted from the entries so far for reference:
primo-2 + primo-1 [DRSC16511] | infection score, replicate 1 = 1.42; cell count, replicate 1 = 6062
primo-2 + primo-1 [DRSC27823] | infection score, replicate 1 = 4.81; cell count, replicate 1 = 6605
Ccp84Ad [DRSC12589] | infection score, replicate 1 = 2.74; cell count, replicate 1 = 6267

The list goes on:
Snx16 (Sorting nexin 16) [DRSC06984] showed infection score, replicate 1 = 13.7; cell count, replicate 1 = 6348.
After knock-down of Lcp9 (Larval cuticle protein 9) [DRSC04287], the record shows infection score, replicate 1 = 2.29; cell count, replicate 1 = 6667.
Silencing of hpRNA:CR32205 (hairpin RNA:CR32205) [DRSC09890] resulted in: infection score, replicate 1 = 4.59; cell count, replicate 1 = 6401.
Knock-down of CG16868 [DRSC06633] came out at: infection score, replicate 1 = 16.8; cell count, replicate 1 = 5454.
After knock-down of CG10912 [DRSC06009], the screen gave infection score, replicate 1 = 4.44; cell count, replicate 1 = 6301.
CG10912 [DRSC25420] gave infection score, replicate 1 = 1.49; cell count, replicate 1 = 6117.
CG14610 + asRNA:CR42738 [DRSC12554] gave infection score, replicate 1 = 2.14; cell count, replicate 1 = 6544.
With knock-down of Taf1 (TBP-associated factor 1) [DRSC12607] the results were infection score, replicate 1 = 45.1; cell count, replicate 1 = 4235.
Taf1 (TBP-associated factor 1) [DRSC29806] scored infection score, replicate 1 = 55.2; cell count, replicate 1 = 4511.
Eaf (ELL-associated factor) [DRSC05050] showed infection score, replicate 1 = 0.08; cell count, replicate 1 = 5289.
Eaf (ELL-associated factor) [DRSC06052] scored infection score, replicate 1 = 8.73; cell count, replicate 1 = 6870.
Eaf (ELL-associated factor) [DRSC22028] showed infection score, replicate 1 = 13.6; cell count, replicate 1 = 6569.
Eaf (ELL-associated factor) [DRSC27471] gave infection score, replicate 1 = 34.7; cell count, replicate 1 = 6328.
For Ccp84Af [DRSC12591] the deposit lists infection score, replicate 1 = 9.34; cell count, replicate 1 = 6339.
For Ccp84Af [DRSC25262], the entry reads infection score, replicate 1 = 13.1; cell count, replicate 1 = 5416.
